Laboratory results: patent US8785211B2 (priority 2005, dated 2014)

Biological target: α-hemolysin (M113R)7/am7-βCD transient complex (Staphylococcus aureus, UniProt P09616, M139R)
Details: +130 mV; for Dwell time τoff: pH 8.0 Tris-HCl 25 mM, 1 M KCl, averaged from three independent measurements, over 500 events each; for Peak value of current amplitude, average: all 4 nucleotides present, 5 independent experiments, normalised to cyclodextrin peak at 65 pA; for Average value (mean) of the current amplitude distribution / σ of the Gaussian current amplitude distribution: one nucleotide on cis side, three independent experiments, normalised between 0 and 65 pA

SMILES	Dwell time τoff [ms]	Peak value of current amplitude, average [pA]	Average value (mean) of the current amplitude distribution [pA]	σ of the Gaussian current amplitude distribution [pA]
Nc1ccn([C@H]2C[C@H](O)[C@@H](COP(=O)(O)O)O2)c(=O)n1	10.5 ± 0.4	20.2 ± 0.5	20.0	0.51
Nc1ncnc2c1ncn2[C@H]1C[C@H](O)[C@@H](COP(=O)(O)O)O1	7.1 ± 0.2	18.6 ± 0.6	18.4	0.54
